Biological target: neuraminidase of influenza virus B/Pert/211/2001 (197E) (Influenza B virus, UniProt Q3S340, D197E)
Assay type: biochemical
Conditions: read-out: IC50, nM (number of experiments)

## CCC(CC)O[C@@H]1C=C(C(=O)O)C[C@H](N)[C@H]1NC(C)=O [A2, (3R,4R,5S)-5-amino-4-acetamido-3-(pentan-3-yloxy)cyclohex-1-enecarboxylic acid, reference compound]
  IC50: 230 nM

From patent US8895613B2 (priority 2013, dated 2014)
